Patent US20250122455A1, “INTEGRATED SYSTEM FOR MULTIPLE CULTIVATIONS OF A BIOLOGICAL AGENT AND METHODS OF USE THEREOF” (The Hong Kong Polytechnic University, priority 2023, published 2025)

System: P. aeruginosa biofilms

sodium nitroprusside dihydrate
Induced biofilm dispersal (ΔbdlA/plac-bdlA complementation strain, FIG. 13B): could undergo induced biofilm dispersal | Induced biofilm dispersal (ΔfliM/plac-fliM complementation strain, FIG. 14B): could undergo induced biofilm dispersal

Read-outs that look alike come from different tables or passages of the source. This is a selection: effects in other tests are not listed, and their absence says nothing.
